Pooled drug test results. Numbers come from NIAID ChemDB, via PubChem.

Common to all: tests in culture; species: Mycobacterium tuberculosis

Neighbouring rows are from separate reports. MIC bound: limit read from a one-dose screen. ECn is the concentration giving n% inhibition of infection, replication or growth. A number after MIC or MFC names an inhibition level or a share of isolates. An empty or dashed field is not shown. Percent inhibition refers to the dose given; in toxicity tests it is the harm to the cells.

SMILES,dose,measure,strain,method,value
O=Nn1c2ccccc2c2cc([N+](=O)[O-])ccc21,-,MIC,H37Rv,-,100 µg/mL
CC[n+]1c(-c2ccccc2)c2cc(NCCCN)ccc2c2ccc(N)cc21,-,MIC bound,H37Rv,BACTEC,≤12.5 µg/mL
O=C1CC(c2ccccc2)Oc2cc(F)ccc21,-,EC50,-,-,>12.5 µg/mL
O=C1C2C3C=CC(O3)C2C(=O)N1Nc1ccccc1,12.5 µg/mL,inhibition,H37Rv,BACTEC,-11%
O=C(O)c1ccc(O)c([N+](=O)[O-])c1,-,MIC,H37Rv,-,>100 µg/mL
COc1ccc(-c2oc3cc(OC)c(OC)c(O)c3c(=O)c2O)cc1O,-,MIC,H37Rv,BACTEC,≥12.8 µg/mL
CC(C)c1ccc2c(c1)CC[C@H]1[C@](C)(CNCCNCCF)CCC[C@]21C,-,MIC,-,-,25 µM
CCCCCc1ccc(OC(C)C(=O)Nc2ccc(NC(=O)CC(=O)c3ccccc3OC)cc2)cc1,-,MIC,H37Rv,-,>100 µg/mL
CO[C@H]1/C=C/O[C@@]2(C)Oc3c(C)c(O)c4c(O)c(c(/C=N/N5CCN(C/C=C/c6ccccc6)CC5)c(O)c4c3C2=O)NC(=O)/C(C)=C\C=C\[C@H](C)[C@H](O)[C@@H](C)[C@@H](O)[C@@H](C)[C@H](OC(C)=O)[C@@H]1C,-,MBC,2227 (rifampin-resistant),-,0.4 µg/mL
N=NC(=O)c1ccccc1Nc1c(O)[nH]c2ccccc12,-,MIC bound,H37Rv,BACTEC,>12.5 µg/mL
CO[C@H]1/C=C/O[C@@]2(C)Oc3c(C)c(O)c4c(=O)c(c5oc6cc(N7CCN(CC(C)C)CC7)cc(=O)c6nc5c4c3=C2O)NC(=O)/C(C)=C\C=C\[C@H](C)[C@H](O)[C@@H](C)[C@@H](O)[C@@H](C)[C@H](OC(C)=O)[C@@H]1C,-,MIC,2624 (rifampin-sensitive),-,0.003 µg/mL
C(CNCC12CC3CC(CC(C3)C1)C2)NCC12CC3CC(CC(C3)C1)C2,-,MIC,-,-,9.4 µM
CC(C)c1ccc2c(c1)CC[C@H]1[C@](C)(CNCCNC3CCc4ccccc43)CCC[C@]21C,-,MIC,-,-,25 µM
Nc1cccc(Cl)c1,-,MIC,H37Rv,-,100 µg/mL
CCOC(=O)Nc1cc(NCCc2ccc(S(=O)(=O)N(CC)CC)cc2)c2ncc(-c3ccc(Cl)cc3)nc2n1,-,EC50,H37Rv,-,>12.5 µg/mL
C/C(=C/c1c(Br)cc(Br)c(N)c1Br)C(=O)O,-,MIC,H37Rv,-,100 µg/mL
COc1ccc(CCNCCNC(C)CC(C)C)cc1OC,-,MIC,-,-,50 µM
CCOc1ccccc1CNCCNC[C@]1(C)CCC[C@]2(C)c3ccc(C(C)C)cc3CC[C@@H]12,-,MIC,-,-,25 µM
CCOC(=O)Nc1cc(N)c([N+](=O)[O-])c(NC(c2ccccc2)c2ccccc2)n1,-,EC50,H37Rv,-,>12.5 µg/mL
CC(=O)Oc1ccc([C@H]2Oc3cc(OC(C)=O)cc(OC(C)=O)c3C(=O)[C@@H]2c2c(OC(C)=O)cc(OC(C)=O)c3c(=O)cc(-c4ccc(OC(C)=O)c(OC(C)=O)c4)oc23)cc1,-,EC50,H37Rv,-,>12.5 µg/mL
NC[C@H]1O[C@H](O[C@H]2[C@H](O)[C@@H](O[C@H]3O[C@H](CO)[C@@H](O)[C@H](N)[C@H]3O)[C@H](N)C[C@@H]2N)[C@H](O)[C@@H](O)[C@@H]1O,-,MIC,TN758 (P),-,4 µg/mL
CC1COc2c(N3CCN(C)CC3)c(F)cc3c(=O)c(C(=O)O)cn1c23,-,MIC,ATCC 35827,-,0.5 µg/mL
NC(CCO)C(=O)O,-,MIC,H37Rv,-,>100 µg/mL
COc1ccccc1CCNCCNC[C@]1(C)CCC[C@]2(C)c3ccc(C(C)C)cc3CC[C@@H]12,-,MIC,-,-,25 µM
COc1cc(C(C2=C(O)c3ccccc3C(=O)C2=O)C2=C(O)c3ccccc3C(=O)C2=O)cc(Br)c1O,-,MIC bound,H37Rv,BACTEC,>12.8 µg/mL
Ic1cccc2c1sc1ccccc12,-,MIC,H37Rv,-,>100 µg/mL
Cc1ccc(CNCCNCc2ccc(F)cc2)cc1,-,MIC,-,-,50 µM
Cc1ccc(NP2(Nc3ccc(C)cc3)=NP(Nc3ccc(C)cc3)(N3CC3)=NP(Nc3ccc(C)cc3)(N3CC3)=N2)cc1,-,MIC,ETA-R,-,6.4 µg/mL
CCOC(=O)Nc1cc(NC(C)CCCN(CC)CC)c2ncc(C)nc2n1,-,EC50,H37Rv,-,>12.5 µg/mL
COc1cccc(CNCCNC[C@]2(C)CCC[C@]3(C)c4ccc(C(C)C)cc4CC[C@@H]23)c1OC,-,MIC,-,-,25 µM
O=c1c(O)c(-c2ccc(O)c(O)c2)oc2cc(O)cc(O)c12,-,MIC,H37Rv,-,>100 µg/mL
CCCCC(CC)CN1CN(CC(CC)CCCC)CC(C)(NCCNCCc2ccccc2F)C1,-,MIC,-,-,25 µM
COC(=O)c1ccc(N(C)C)cc1,-,MIC,H37Rv,-,>100 µg/mL
C[N+](C)(C)CC(=O)N/N=C/c1cccc2ccccc12.[Cl-],12.5 µg/mL,inhibition,H37Rv,BACTEC,3%
COc1ccc(Nc2c3ccc(Cl)cc3nc3ccc(OC)cc23)cc1,-,MIC,H37Rv,-,100 µg/mL
NC1CCN(c2c(F)cc3c(=O)c(C(=O)O)cn(C4CC4)c3c2Cl)C1,-,MBC90,DRUG-SUS,-,1 µg/mL
CC(C)CC(NC(=O)C(C)NC(=O)C(NC(=O)OCc1ccccc1)C(C)O)C(=O)NC(CC(C)C)C(=O)NCC(=O)NN,-,MIC bound,H37Rv,BACTEC,>12.5 µg/mL
CCCCCCCCCCCNCCNCc1ccc(C)cc1,-,MIC,-,-,50 µM
O=S(=O)(O)c1ccccc1,-,MIC,H37Rv,-,>100 µg/mL
CC(C)=CCC/C(C)=C/CNCCN(Cc1ccccc1)Cc1ccccc1,-,MIC,-,-,25 µM
CNC(C(=O)c1ccccc1)C(Cl)c1ccccc1.Cl,-,MIC,H37Rv,-,50 µg/mL
OCCCCCNCCNCCCCc1ccccc1,-,MIC,-,-,25 µM
O=C(Nc1ccccc1)c1cc(-n2cnc([N+](=O)[O-])c2)ccn1,-,MIC,FQR-M70,-,0.313 µg/mL
CC(C)(O)CNC(=O)c1cccc([N+](=O)[O-])c1,-,MIC,H37Rv,-,>100 µg/mL
NC1CCN(c2nc3c(cc2F)c(=O)c(C(=O)O)cn3-c2ccc(F)cc2F)C1,-,MBC,ATCC35838,-,>8 µg/mL
O=C(CC(=O)Nc1ccccc1)Nc1ccccc1,-,MIC,H37Rv,-,>100 µg/mL
COc1ccccc1CCNCCN[C@@H]1C[C@@H]2C[C@H]([C@H]1C)C2(C)C,-,MIC,-,-,25 µM
C[C@H]1C[C@H](N)CN1c1cc2c(cc1F)c(=O)c(C(=O)O)cn2-c1ccc(F)cc1F,-,MIC,ATCC 35830,-,1 µg/mL
CCC(=O)NS(=O)(=O)c1cc(N)ccc1S(=O)(=O)c1ccc(N)cc1,-,MIC,H37Rv,-,25 µg/mL
CCc1nn(CCCN2CCN(c3cccc(Cl)c3)CC2)c(=O)n1CC.Cl,12.5 µg/mL,inhibition,H37Rv,BACTEC,24%
CC(C)N=c1cc2n(-c3ccc(Cl)cc3)c3ccccc3nc-2cc1Nc1ccc(Cl)cc1,-,MIC,MDR24,broth dilution / resazurin,0.25 µg/mL
CN1C2CCC1[C@H](COC(=O)c1ccccc1)[C@@H](OC(=O)c1ccccc1)C2.Cl,-,MIC bound,H37Rv,BACTEC,≤128 µg/mL
O=S(=O)(c1ccc(O)cc1)c1ccc(O)cc1,-,MIC,H37Rv,-,>100 µg/mL
CCOC(=O)Nc1cc(NCc2ccc(S(N)(=O)=O)cc2)c2nccnc2n1,-,EC50,H37Rv,-,>12.5 µg/mL
CC1(C)[C@@H]2CC[C@H](CNCCNC[C@@H]3CC[C@H]4C[C@@H]3C4(C)C)[C@H]1C2,-,MIC,-,-,6.25 µM
O=[N+]([O-])c1ccc(NN=C(c2ccccc2)c2ccccn2)nc1,-,MIC bound,H37Rv,resazurin,>6.25 µg/mL
CCOc1ccccc1CNCCNCCc1ccccc1Cl,-,MIC,-,-,25 µM
O=C(CCSCCC(=O)N/N=C\C(O)C(O)C(O)C(O)CO)N/N=C\C(O)C(O)C(O)C(O)CO,-,MIC bound,H37Rv,BACTEC,>12.5 µg/mL
CCCCC(CC)CN1CN(CC(CC)CCCC)CC(C)(NCCNC(CC)CC)C1,-,MIC,-,-,25 µM
CO[C@H]1/C=C/O[C@@]2(C)Oc3c(C)c(O)c4c(O)c(c5c(c4c3C2=O)NC2(CCN(CC(C)C)CC2)N=5)=NC(=O)/C(C)=C\C=C\[C@H](C)[C@H](O)[C@@H](C)[C@@H](O)[C@@H](C)[C@H](OC(C)=O)[C@@H]1C,-,MIC,Strain 123-134 (S531L/F),-,24 µg/mL
O=C(O)C(O)c1ccccc1,-,MIC,H37Rv,-,100 µg/mL
CC[C@H]1OC(=O)[C@H](C)[C@@H](O[C@H]2C[C@@](C)(OC)[C@@H](O)[C@H](C)O2)[C@H](C)[C@@H](O[C@@H]2O[C@H](C)C[C@H](N(C)C)[C@H]2O)[C@](C)(O)C[C@@H](C)CN(C)[C@H](C)[C@@H](O)[C@]1(C)O,-,MIC90,MDR,-,>8 µg/mL
CCOC(=O)CCCC(=O)OCC,-,MIC,H37Rv,-,>100 µg/mL
Cc1ccc(NCCNCC(O)CO)c2c(=O)c3ccccc3sc12,-,MIC,H37Rv,BACTEC,6.25 µg/mL
CC(C)c1ccc2c(c1)CC[C@H]1[C@](C)(CNCCNN3CCCC3)CCC[C@]21C,-,MIC,-,-,50 µM
Cl.O=C(COc1ccc(Cl)cc1)NN1CCCCCC1,-,MIC bound,H37Rv,BACTEC,>12.5 µg/mL
CO[C@H]1/C=C/O[C@@]2(C)Oc3c(C)c(O)c4c(O)c(c(/C=N/N5CCN(C6CCCC6)CC5)c(O)c4c3C2=O)NC(=O)/C(C)=C\C=C\[C@H](C)[C@H](O)[C@@H](C)[C@@H](O)[C@@H](C)[C@H](OC(C)=O)[C@@H]1C,-,MIC,Isolate 900201 drug-susceptible,-,0.25 µg/mL
Cc1ccc(S(=O)(=O)/C=C/c2ccc([N+](=O)[O-])o2)cc1,-,MIC,H37Rv,resazurin,3.13 µg/mL
COc1ccc(C2Oc3cc(F)ccc3C(=O)C2O)cc1,-,EC50,-,-,12.5 µg/mL
COC(=O)C(Cc1cc(OC)c(OC)c(OC)c1)(NC(=O)c1ccccc1)P(=O)(OC)OC,12.5 µg/mL,inhibition,H37Rv,BACTEC,27%
CO[C@H]1/C=C/O[C@@]2(C)Oc3c(C)c(O)c4c(O)c(c(/C=N/N5CCN(C)CC5)c(O)c4c3C2=O)NC(=O)/C(C)=C\C=C\[C@H](C)[C@H](O)[C@@H](C)[C@@H](O)[C@@H](C)[C@H](OC(C)=O)[C@@H]1C,-,MIC,TN801,-,2 µg/mL
CON/C=C(C#N)/C=C/C=Nc1ccc(S(=O)(=O)N=C(N)N)cc1,-,MIC bound,H37Rv,BACTEC,>12.5 µg/mL
CCOC(=O)Nc1cc(N)c([N+](=O)[O-])c(NC/C(CNc2ccc(C(=O)OCC)cc2)=N\O)n1,12.5 µg/mL,inhibition,H37Rv,-,0%
O=C1C(S(=O)(=O)O)=CC(=Nc2ccc(O)cc2)c2ccccc21,12.5 µg/mL,inhibition,H37Rv,BACTEC,19%
O=C(O)/C=C/c1cccc([N+](=O)[O-])c1,-,MIC,H37Rv,-,>100 µg/mL
CN1CC2(C)OC3(CC2(C)N1C)N(C)N(C)CC3(C)O,-,MIC,H37Rv,BACTEC,≥128 µg/mL
O=C(Cc1ccccc1)c1ccccc1,-,MIC,H37Rv,-,>100 µg/mL

For reference, 9 entries again:

SMILES	dose	measure	strain	method	value
O=[N+]([O-])c1ccc(NN=C(c2ccccc2)c2ccccn2)nc1	-	MIC bound	H37Rv	resazurin	>6.25 µg/mL
O=C(CCSCCC(=O)N/N=C\C(O)C(O)C(O)C(O)CO)N/N=C\C(O)C(O)C(O)C(O)CO	-	MIC bound	H37Rv	BACTEC	>12.5 µg/mL
COC(=O)C(Cc1cc(OC)c(OC)c(OC)c1)(NC(=O)c1ccccc1)P(=O)(OC)OC	12.5 µg/mL	inhibition	H37Rv	BACTEC	27%
COc1ccccc1CCNCCN[C@@H]1C[C@@H]2C[C@H]([C@H]1C)C2(C)C	-	MIC	-	-	25 µM
CO[C@H]1/C=C/O[C@@]2(C)Oc3c(C)c(O)c4c(O)c(c5c(c4c3C2=O)NC2(CCN(CC(C)C)CC2)N=5)=NC(=O)/C(C)=C\C=C\[C@H](C)[C@H](O)[C@@H](C)[C@@H](O)[C@@H](C)[C@H](OC(C)=O)[C@@H]1C	-	MIC	Strain 123-134 (S531L/F)	-	24 µg/mL
COc1ccc(C2Oc3cc(F)ccc3C(=O)C2O)cc1	-	EC50	-	-	12.5 µg/mL
O=c1c(O)c(-c2ccc(O)c(O)c2)oc2cc(O)cc(O)c12	-	MIC	H37Rv	-	>100 µg/mL
O=C(O)C(O)c1ccccc1	-	MIC	H37Rv	-	100 µg/mL
CC[n+]1c(-c2ccccc2)c2cc(NCCCN)ccc2c2ccc(N)cc21	-	MIC bound	H37Rv	BACTEC	≤12.5 µg/mL